Patent US4678799A, “1,2(1,4)-dimethyl-4(2)-(2-hydroxyethyl)-5-nitro-imidazole antiprotozoal agents with reduced mutagenicity” (Merck & Co., Inc., priority 1984, dated 1987)
The amount applied is not stated for every result.

How the values were obtained:
T. foetus = test: In vitro antiprotozoal activity against T. foetus; format: cell-based; conditions: ratio antiprotozoal activity/mutagenicity relative to known compound I
Source text: (§1) Several 5-nitroimidazoles have been tested for in vitro antiprotozoal activity against T. foetus, T. vaginalis, and G. lamblia.

T. vaginalis = test: In vitro antiprotozoal activity against T. vaginalis; format: cell-based; conditions: ratio antiprotozoal activity/mutagenicity relative to known compound I
Source text: as §1

SMILES | Efficacy Index T. foetus (T. foetus) | Efficacy Index T. vaginalis (T. vaginalis)
Cc1nc(CCO)c([N+](=O)[O-])n1C [Compound V] | 80.0 | 60.0
Cc1nc(CCO)n(C)c1[N+](=O)[O-] [IV, 1,4-Dimethyl-2-(2-hydroxyethyl)-5-nitroimidazole] | 24.6 | 4.8
